Anti-infective test results gathered from many reports (values: NIAID ChemDB through PubChem).

All rows: tests in culture

Conditions beyond the fields shown may differ between rows.

| SMILES | cells | method | strain or isolate | read-out | agent | value |
|---|---|---|---|---|---|---|
| Cc1ccc(CCCOc2c(C)cc(-c3noc(C(F)F)n3)cc2C)nn1 | HeLa | cytopathic effect | - | EC50 | Enterovirus | 0.033–0.659 µg/mL |
| C[C@@H]1CN(c2c(F)c(N)c3c(=O)c(C(=O)O)cn(C4CC4)c3c2F)C[C@H](C)N1 | - | - | - | MIC90 | Enterococcus faecium | 1–50 µg/mL |
| CC(CCOc1ccc(-c2ccc(Cl)cc2)cc1)CCN1CCN(c2ccncc2)C1=O | RD | cytopathic effect | Clinical isolate 71 (4643) | EC50 | Enterovirus | 0.0093 µM |
| O=C(CCC(=O)Nc1cc(C(F)(F)F)cc(C(F)(F)F)c1)Nc1cc(C(F)(F)F)cc(C(F)(F)F)c1 | - | - | STD44 | MIC | Enterococcus faecalis | >300 µM |
| CC(=O)NC[C@H]1CN(c2ccc(-c3ccnn3C)c(F)c2)C(=O)O1 | - | - | UC9217 | MIC | Enterococcus faecalis | ≤0.5 µg/mL |
| Cc1c(NCCCO)c(F)cc2c(=O)c(C(=O)O)cn(-c3cc(N)c(F)cc3F)c12 | - | - | W1418 | MIC | Enterococcus faecium | 64 µg/mL |
| CC(=O)NC[C@H]1CN(c2ccc(-c3cccs3)c(F)c2)C(=O)O1 | - | - | UC9217 | MIC | Enterococcus faecalis | 0.5 µg/mL |
| O=C(NCCO)NNC(=O)Nc1cc(C(F)(F)F)cc(C(F)(F)F)c1 | - | - | STD44 | MIC | Enterococcus faecalis | >300 µM |
| CC(C)(CCOc1ccc(-c2ccc(Cl)cc2)cc1)CCN1CCN(c2ccncc2)C1=O | RD | cytopathic effect | Clinical isolate 71 (2231) | EC50 | Enterovirus | 0.14 µM |
| CC(=O)NC[C@H]1CN(c2ccc(NC(=O)c3ccc(Br)o3)c(F)c2)C(=O)O1 | - | - | UC12712 (vancomycin-resistant) | MIC | Enterococcus faecium | 8 µg/mL |
| CC(=O)NC[C@H]1CN(c2ccc(-c3cnn(C(C)=O)c3)c(F)c2)C(=O)O1 | - | - | UC9217 | MIC | Enterococcus faecalis | 2 µg/mL |
| CC(=O)c1ccc(CCCOc2cc(C)c(-c3noc(C)n3)c(C)c2)nn1 | HeLa | cytopathic effect | - | EC50 | Enterovirus | 0.033–0.659 µg/mL |
| Cc1cc(CCCCCOc2c(Cl)cc(C3=NCCO3)cc2Cl)on1 | VERO | plaque count | Woodruff (CVB3) | EC50 | Enterovirus | 0.044 µg/mL |
| O=C1N(CCCCCCOc2ccc(C(F)(F)F)cc2)CCN1c1ccncc1 | RD | plaque count | 7/(1743) genotype B | EC50 | Enterovirus | 0.35 µM |
| CNC(=O)CC1NC(=O)c2nc(sc2COC)C(C(C)C)NC(=O)c2csc(n2)-c2ccc(-c3nc(C4=NC(C(=O)N5CCCC5C(N)=O)CO4)cs3)nc2-c2csc(n2)-c2csc(n2)C(C(O)c2ccccc2)NC(=O)CNC(=O)c2nc1sc2C | - | - | UC12712 (vancomycin-resistant) | MIC | Enterococcus faecium | 4 µg/mL |
| CCOC(=O)c1nc(-c2ccc(N3C[C@H](CNC(C)=O)OC3=O)cc2F)ns1 | - | - | UC9217 | MIC | Enterococcus faecalis | >16 µg/mL |
| Cc1cc(OCCCc2ccc(CO)nn2)cc(C)c1-c1noc(C(F)F)n1 | HeLa | cytopathic effect | - | EC50 | Enterovirus | 0.033–0.659 µg/mL |
| CC(=O)NC[C@H]1CN(c2ccc(-c3nsc(C#N)n3)c(F)c2)C(=O)O1 | - | - | UC9217 | MIC | Enterococcus faecalis | 8 µg/mL |
| CNc1c(F)cc2c(=O)c(C(=O)O)cn(-c3cc(N)c(F)cc3F)c2c1C | - | - | W1140 | MIC | Enterococcus faecium | 2 µg/mL |
| CC(=O)NC[C@H]1CN(c2ccc(NC(=O)c3ccccn3)c(F)c2)C(=O)O1 | - | - | UC12712 (vancomycin-resistant) | MIC | Enterococcus faecium | 16 µg/mL |
| Cc1cc(OCCCc2ccc(C(F)F)nn2)cc(C)c1-c1noc(C(F)F)n1 | HeLa | cytopathic effect | - | EC50 | Enterovirus | 0.033–0.659 µg/mL |
| CC(=O)NC[C@H]1CN(c2ccc(-c3csc(C)c3)c(F)c2)C(=O)O1 | - | - | UC9217 | MIC | Enterococcus faecalis | 2 µg/mL |
| CC(=O)c1ccc(CCCOc2ccc(-c3noc(C(F)F)n3)c(C)c2)nn1 | HeLa | cytopathic effect | - | EC50 | Enterovirus | 0.033–0.659 µg/mL |
| O=C(Nc1cc(C(F)(F)F)cc(C(F)(F)F)c1)NS(=O)(=O)c1ccc(OC(F)(F)F)cc1 | - | - | STD44 | MIC | Enterococcus faecalis | 50 µM |
| Cc1cc(OCCCc2ccc(C(C)F)nn2)cc(C)c1-c1noc(C(F)F)n1 | HeLa | cytopathic effect | - | EC50 | Enterovirus | 0.033–0.659 µg/mL |
| Cc1c(NC2CC2)c(F)cc2c(=O)c(C(=O)O)cn(-c3cc(N)c(F)cc3F)c12 | - | - | W1140 | MIC | Enterococcus faecium | 2 µg/mL |
| CN(C)c1cc(NC(=O)CNC(C)(C)C)c(O)c2c1C[C@H]1C[C@H]3[C@H](N(C)C)C(=O)C(C(N)=O)=C(O)[C@@]3(O)C(=O)C1=C2O | - | - | 20 strains (vancomycin-susceptible) | MIC90 | Enterococcus faecium | 0.12 µg/mL |
| O=C(CC(=O)Nc1ccc(F)cc1)Nc1ccc(F)cc1 | - | - | STD44 | MIC | Enterococcus faecalis | >300 µM |
| COC(=O)n1ccc(-c2ccc(N3C[C@H](CNC(C)=O)OC3=O)cc2F)n1 | - | - | UC9217 | MIC | Enterococcus faecalis | 8 µg/mL |
| CC(=O)NC[C@H]1CN(c2ccc(NC(=O)c3ccc([N+](=O)[O-])s3)c(F)c2)C(=O)O1 | - | - | UC12712 (vancomycin-resistant) | MIC | Enterococcus faecium | 1 µg/mL |
| CC(=O)NC[C@H]1CN(c2ccc(-c3cnn(C(c4ccccc4)(c4ccccc4)c4ccccc4)c3)c(F)c2)C(=O)O1 | - | - | UC9217 | MIC | Enterococcus faecalis | >32 µg/mL |
| CC(=O)NC[C@H]1CN(c2ccc(NC(=O)c3ccc(F)o3)c(F)c2)C(=O)O1 | - | - | UC12712 (vancomycin-resistant) | MIC | Enterococcus faecium | 16 µg/mL |

A second listing of 3 rows from above:

SMILES	cells	method	strain or isolate	read-out	agent	value
CC(=O)NC[C@H]1CN(c2ccc(-c3nsc(C#N)n3)c(F)c2)C(=O)O1	-	-	UC9217	MIC	Enterococcus faecalis	8 µg/mL
O=C1N(CCCCCCOc2ccc(C(F)(F)F)cc2)CCN1c1ccncc1	RD	plaque count	7/(1743) genotype B	EC50	Enterovirus	0.35 µM
CCOC(=O)c1nc(-c2ccc(N3C[C@H](CNC(C)=O)OC3=O)cc2F)ns1	-	-	UC9217	MIC	Enterococcus faecalis	>16 µg/mL

Two numbers with a dash give a range or band. An empty or dashed field is not shown. ECn: concentration that inhibits the pathogen or its effect by n%. A number after MIC or MFC names an inhibition level or a share of isolates.